Anti-infective test results gathered from many reports (values: NIAID ChemDB through PubChem).

Common to all: tests in culture; species: Aspergillus niger; method: broth dilution; endpoint: MIC

Rows are shuffled and stem from different studies. Blank or dashed fields: not listed here.

compound	strain or isolate	conditions	result
c1ccc(C2=NN(c3ccccc3)C(c3ccc(OCCCCCCOc4ccc(C5CC(c6ccccc6)=NN5c5ccccc5)cc4)cc3)C2)cc1			16 µg/mL
O/N=C(/COc1ccc(F)cc1)c1ccccc1	ATCC 16404	48 h	>125 µg/mL
CCCCCCCCCCCCCC(=O)NC(CCCN)C(=O)NC(CCCN)C(=O)NC(CCCN)C(=O)NC(CCCN)C(=O)NC(CCCN)C(N)=O	ATCC 64028		6.25 µg/mL
Cc1cc(Cl)[nH]c2ccc3c(=O)c(C(=O)NN=Cc4cc([N+](=O)[O-])ccc4O)cnc3c12			1000 µg/mL
CCCCCCCC(=O)NC(CCCN)C(=O)NC(CCCN)C(=O)NC(CCCN)C(N)=O	ATCC 64028		>100 µg/mL
COc1ccc(OCC(=O)c2ccccc2)cc1	ATCC 16404	72 h	>125 µg/mL
CCCCCCCCCCCCCC(=O)NC(CCCN)C(=O)NC(CCCN)C(N)=O	ATCC 64028		25 µg/mL
Cc1cc(Cl)[nH]c2ccc3c(=O)c(C(=O)NN=Cc4ccccc4O)cnc3c12			500 µg/mL
CCCCCCCCCCCCCCCC(=O)NC(CCCN)C(N)=O	ATCC 64028		>100 µg/mL
Cc1cc(Cl)[nH]c2ccc3c(=O)c(C(=O)NN4C(=O)C(Cl)C4c4ccccc4O)cnc3c12			1000 µg/mL
CCCCCCCCCCCCCCCCCC(=O)NC(CCCN)C(N)=O	ATCC 64028		>100 µg/mL
c1ccc(C2=NN(c3ccccc3)C(c3ccc(OCCOc4ccc(C5CC(c6ccccc6)=NN5c5ccccc5)cc4)cc3)C2)cc1			16 µg/mL
O/N=C(\COc1ccccc1)c1ccccc1	ATCC 16404	72 h	>125 µg/mL
Cc1cc(Cl)[nH]c2ccc3c(=O)c(C(=O)NN4C(=O)C(Cl)C4c4ccccc4Cl)cnc3c12			250 µg/mL
CCCCCCCCCC(=O)NC(CCCN)C(=O)NC(CCCN)C(N)=O	ATCC 64028		>100 µg/mL
O=C(COc1ccc(F)cc1)c1ccccc1	ATCC 16404	48 h	>125 µg/mL
COc1ccc(C2C(Cl)C(=O)N2NC(=O)c2cnc3c(ccc4[nH]c(Cl)cc(C)c43)c2=O)cc1			>1000 µg/mL
Nc1scc2c1c(=O)oc1ccccc12			16 µg/mL
O=C(/C=C/c1ccc(OCCCOc2ccc(/C=C/C(=O)c3ccccc3)cc2)cc1)c1ccccc1			32 µg/mL
CCC(C)CC(C)CCCCCCCCC(=O)N[C@H]1C[C@@H](O)[C@H](NCCN)NC(=O)[C@@H]2[C@@H](O)CCN2C(=O)[C@H]([C@H](O)CCN)NC(=O)[C@H]([C@H](O)[C@@H](O)c2ccc(O)cc2)NC(=O)[C@@H]2C[C@@H](O)CN2C(=O)[C@H]([C@@H](C)O)NC1=O	21		128 µg/mL
O=C(/C=C/c1ccc(OCCCCCCCCOc2ccc(/C=C/C(=O)c3ccccc3)cc2)cc1)c1ccccc1			16 µg/mL
CCCCCCCCCCCCCC(=O)NC(CCCN)C(N)=O	ATCC 64028		>100 µg/mL

The first 2 rows once more:

compound	strain or isolate	conditions	result
c1ccc(C2=NN(c3ccccc3)C(c3ccc(OCCCCCCOc4ccc(C5CC(c6ccccc6)=NN5c5ccccc5)cc4)cc3)C2)cc1			16 µg/mL
O/N=C(/COc1ccc(F)cc1)c1ccccc1	ATCC 16404	48 h	>125 µg/mL